Results taken from patent publication US20210340181A1, “Alpha(v)beta(6) integrin-binding peptides and methods of use thereof” (published 2021).
Read-outs that look alike come from different tables or passages of the source.

How the values were obtained:
αvβ8 integrin (purified) [1] = target: αvβ8 integrin (purified) (UniProt P06756); experiment: competitive ELISA vs BtLAP
αvβ3 integrin (purified) = αvβ3 integrin (purified) (UniProt P06756); experiment: competitive ELISA vs BtLAP
αvβ6 integrin (purified) [2] = target: αvβ6 integrin (purified) (UniProt P06756)
αvβ8 integrin (purified) [3] = target: αvβ8 integrin (purified) (UniProt P06756); experiment: competitive ELISA vs BtLAP (text; the table prints >10)
αvβ6 integrin (purified) [4] = target: αvβ6 integrin (purified) (UniProt P06756); remark: listed apart in the source
αvβ6 integrin (purified) [5] = target: αvβ6 integrin (purified) (UniProt P06756); remark: listed apart in the source
[6] = target: αvβ6 integrin on DX3puroβ6 (αvβ6+) cells (human) (UniProt P06756); experiment: 18F peptide cell binding, αvβ6+ over αvβ6- cells
αvβ6 integrin (purified) [7] = target: αvβ6 integrin (purified) (UniProt P06756); remark: listed apart in the source
αvβ6 integrin (purified) [8] = target: αvβ6 integrin (purified) (UniProt P06756); remark: listed apart in the source
[9] = target: αvβ6 integrin on DX3puroβ6 (αvβ6+) cells (human) (UniProt P06756); experiment: 18F peptide binding to DX3puroβ6 (αvβ6+) cells
[10] = target: αvβ6 integrin on DX3puroβ6 (αvβ6+) cells (human) (UniProt P06756); experiment: 18F peptide binding to DX3puroβ6 (αvβ6+) cells, 1 h, gamma counting

## P1Q-Scrb, FB-… (peptide; modification not given)
αvβ8 integrin (purified) [1]
  IC50: 2900 nM
αvβ3 integrin (purified)
  IC50: > 100000 nM

## Peptide-conjugate RTD-14mer, FB-…
αvβ6 integrin (purified) [2]
  IC50: 0.4 nM

## Peptide-conjugate T1-V1R, FB-…-PEG28 (peptide; modification not given)
αvβ8 integrin (purified) [3]
  IC50: > 100000 nM
αvβ8 integrin (purified) [1]
  IC50: > 10000 nM
αvβ3 integrin (purified)
  IC50: > 100000 nM

## Peptide-conjugate P1K-a, …(FB)KVART (peptide; modification not given)
αvβ8 integrin (purified) [1]
  IC50: > 100000 nM

## Peptide-conjugate T1-e, FB-PEG28-…-PEG28
αvβ6 integrin (purified) [4]
  IC50: 78 nM
αvβ6 integrin (purified) [5]
  fold drop in affinity against T1: 39 fold

## Peptide-conjugate RTD-14mer, FB-… (peptide; modification not given)
[6]
  DX3puroβ6 (αvβ6+)/DX3puro (αvβ6-) selectivity ratio: 9.1

## Peptide-conjugate T1-b, FB-PEG4-…-PEG28
αvβ6 integrin (purified) [5]
  fold drop in affinity against T1: 13 fold
αvβ6 integrin (purified) [7]
  IC50: 25 nM

## Peptide-conjugate KL3Q, FB-…
αvβ6 integrin (purified) [4]
  IC50: 8.7 nM

## Peptide-conjugate T1-d, FB-PEG12-…-PEG28
αvβ6 integrin (purified) [4]
  IC50: 19 nM
αvβ6 integrin (purified) [5]
  fold drop in affinity against T1: 9 fold

## Peptide-conjugate T1-c, FB-PEG8-…-PEG28
αvβ6 integrin (purified) [4]
  IC50: 101 nM
αvβ6 integrin (purified) [5]
  fold drop in affinity against T1: 50 fold

## Peptide-conjugate P3Q, FB-…
αvβ6 integrin (purified) [4]
  IC50: 4 nM

## Peptide-conjugate SFLAP3-15mer, FB-…
αvβ6 integrin (purified) [2]
  IC50: 1.3 nM

## Peptide-conjugate T1-d, FB-PEG12-…-PEG28 (peptide; modification not given)
αvβ8 integrin (purified) [1]
  IC50: > 100000 nM
αvβ3 integrin (purified)
  IC50: > 100000 nM

## P1Q-Scrb, FB-…
αvβ6 integrin (purified) [8]
  IC50: 14 nM

## Peptide-conjugate SFLAP3-15mer, FB-… (peptide; modification not given)
[6]
  DX3puroβ6 (αvβ6+)/DX3puro (αvβ6-) selectivity ratio: 3.9

## Peptide-conjugate T1-b, FB-PEG4-…-PEG28 (peptide; modification not given)
αvβ8 integrin (purified) [1]
  IC50: > 100000 nM
αvβ3 integrin (purified)
  IC50: > 100000 nM

## Peptide-conjugate P1K-b, FB-… (peptide; modification not given)
αvβ8 integrin (purified) [1]
  IC50: > 100000 nM
αvβ3 integrin (purified)
  IC50: > 100000 nM

## Peptide-conjugate KL3Q, FB-… (peptide; modification not given)
[9]
  fold increase in cell binding against N-[^18F]KL3: 2 fold
[6]
  DX3puroβ6 (αvβ6+)/DX3puro (αvβ6-) selectivity ratio: 1.9
[10]
  % binding to cells: 1.3%

## Peptide-conjugate T1, FB-…-PEG28 (peptide; modification not given)
αvβ8 integrin (purified) [1]
  IC50: > 100000 nM
αvβ3 integrin (purified)
  IC50: > 100000 nM

## Peptide-conjugate P3Q, FB-… (peptide; modification not given)
[6]
  DX3puroβ6 (αvβ6+)/DX3puro (αvβ6-) selectivity ratio: 11.8
[10]
  % binding to cells: 20%

## Peptide-conjugate T1-c, FB-PEG8-…-PEG28 (peptide; modification not given)
αvβ8 integrin (purified) [1]
  IC50: > 100000 nM
αvβ3 integrin (purified)
  IC50: > 100000 nM

## Peptide-conjugate T1-e, FB-PEG28-…-PEG28 (peptide; modification not given)
αvβ8 integrin (purified) [1]
  IC50: > 100000 nM
αvβ3 integrin (purified)
  IC50: > 100000 nM

## Peptide-conjugate T1, FB-…-PEG28
αvβ6 integrin (purified) [7]
  IC50: 2 nM

## Peptide-conjugate T1-V1R, FB-…-PEG28
αvβ6 integrin (purified) [7]
  IC50: 10 nM

## Peptide-conjugate P1K-a, …(FB)KVART
αvβ6 integrin (purified) [8]
  IC50: 21 nM

## Peptide-conjugate T1-g, FB-PEG28-Amb-…-PEG28
αvβ6 integrin (purified) [4]
  IC50: 37 nM

## Peptide-conjugate T1-f, FB-Amb-…-PEG28
αvβ6 integrin (purified) [4]
  IC50: 7 nM

## Peptide-conjugate T1-a, FB-PEG2-…-PEG28
αvβ6 integrin (purified) [5]
  fold drop in affinity against T1: 24 fold
αvβ6 integrin (purified) [7]
  IC50: 47 nM

## Peptide-conjugate P1Q, FB-…
αvβ6 integrin (purified) [8]
  IC50: 12 nM

## Peptide-conjugate T1-a, FB-PEG2-…-PEG28 (peptide; modification not given)
αvβ8 integrin (purified) [1]
  IC50: > 100000 nM
αvβ3 integrin (purified)
  IC50: > 100000 nM

## Peptide-conjugate P1Q, FB-… (peptide; modification not given)
αvβ8 integrin (purified) [1]
  IC50: > 100000 nM
αvβ3 integrin (purified)
  IC50: > 100000 nM

## Peptide-conjugate T1-f, FB-Amb-…-PEG28 (peptide; modification not given)
αvβ8 integrin (purified) [1]
  IC50: > 100000 nM
αvβ3 integrin (purified)
  IC50: > 100000 nM

## Peptide-conjugate T1-g, FB-PEG28-Amb-…-PEG28 (peptide; modification not given)
αvβ8 integrin (purified) [1]
  IC50: > 100000 nM
αvβ3 integrin (purified)
  IC50: > 100000 nM

## Peptide-conjugate P1K-b, FB-…
αvβ6 integrin (purified) [8]
  IC50: 10 nM
